Assay results reported in PMC6291754 (Frontiers in Microbiology, 2018).

Legend:
[1] = target: A/Fukui/45/2004 (NA E119V) neuraminidase (NA) (Influenza A virus, UniProt C6ELZ0, E119V); assay: fluorescence-based NA inhibition assay (NA-Fluor); type: biochemical, influenza A(H3N2) virus; details: virus A/Fukui/45/2004 NA E119V; fold-change in IC50 vs median of same subtype
[2] = target: A/Kagoshima/2/2012 (NA R292K) neuraminidase (NA) (Influenza A virus, UniProt J9TKI7, R292K); assay: fluorescence-based NA inhibition assay (NA-Fluor); type: biochemical, influenza A(H3N2) virus; details: virus A/Kagoshima/2/2012 NA R292K; fold-change in IC50 vs median of same subtype

## CC(=O)N[C@H]1[C@H]([C@H](O)[C@H](O)CO)OC(C(=O)O)=C[C@@H]1N=C(N)N [Zanamivir, zanamivir]
[1]
  NA inhibitor susceptibility (WHO criteria): 0.5 ± 0.1 NI
[2]
  NA inhibitor susceptibility (WHO criteria): 10.9 ± 0.8 RI (Reduced inhibition (RI) is defined as a 10- to 100-fold increase in IC50 for influenza A viruses)
